Assay results from patent publication US12514943B2 (priority 2020, dated 2026).
Some compounds share one wording; it may come from a single statement.

Assay: Effect of limiting decrease in durability of synthetic adhesives, overall determination
Details: 40° C., 16 hours

| Structure (SMILES) | limiting a decrease in durability of synthetic adhesives (in words) |
| --- | --- |
| CC(=O)O [acetic acid] | had no action of limiting a decrease in durability |
| NCC(=O)O [glycine] | limits a decrease in durability |
